Data as given in PMC12114169, “Synthesis, Characterisation, Biological Evaluation and In Silico Studies of Quinoline–1,2,3-Triazole–Anilines as Potential Antitubercular and Anti-HIV Agents” (Molecules, 2025).
Values joined by “and” are separate entries in the source; they are usually repeats but may differ in a detail not shown here. Equal entries are not always repeated.

Tested on: HIV-1 subtype B (NL4.3 virus)
Experiment: Luciferase-based antiviral assay in TZM-bl cells
Conditions: HIV-1 subtype B IC50 versus AZT

Row | Structure (SMILES) | fold less active than AZT | fold more active than AZT
1 | FC(F)(F)c1ccccc1NCc1cn(-c2ccnc3cc(Cl)ccc23)nn1 [Compound 11g, [1-(7-Chloro-4-quinolinyl)-1H-1,2,3-triazole-4-methyl]-2-triflouromethylaniline] | 4 fold | –
2 | Fc1cccc(NCc2cn(-c3ccnc4cc(Cl)ccc34)nn2)c1 [Compound 11h, [1-(7-Chloro-4-quinolinyl)-1H-1,2,3-triazole-4-methyl]-3-flouroaniline] | – | 8.8 fold and 9 fold
3 | O=[N+]([O-])c1cccc(NCc2cn(-c3ccnc4cc(Cl)ccc34)nn2)c1 [Compound 11i, [1-(7-Chloro-4-quinolinyl)-1H-1,2,3-triazole-4-methyl]-3-nitroaniline] | 1.8 fold | –
